A mixed list of measured activities; the numbers were collected in NIAID ChemDB.

Common to all: whole-cell or culture tests; agent: Herpes simplex virus 2

An empty or dashed field is not shown. Lines come from different laboratories, so protocols vary. ECn is the concentration giving n% inhibition of infection, replication or growth.

smiles,measure,strain,cells,method,value
NC1CCCON2CCc3c([nH]c4ccccc34)[C@H]12,EC50,G,PRK,cytopathic effect,2 µg/mL
Nc1nc2c(ncn2CCC(CO)CO)c(=O)[nH]1,EC50,20 clinical isolates,HEL,plaque count,2.4 µg/mL
CCC(Sc1ncnc2c1cnn2COCC(O)CO)C(N)=O,EC50,G,E6SM,cytopathic effect,>400 µg/mL
Nc1ncnc2c1ncn2[C@H]1C[C@@]12C[C@H]2CO,EC50,-,VERO,plaque count,>50 µM
C=CCNc1nc(N)nc2c1ncn2/C=C1/C[C@@H]1CO,EC50,-,HFF,cytopathic effect,>367 µM
CC(=O)OCCOCN1C=CC(=O)N(COCCO)S1(=O)=O,EC50,G,E6SM,-,>400 µg/mL
Nc1nc(=O)c(/C=C/Br)cn1[C@H]1C[C@H](O)[C@@H](CO)O1,EC50,LYONS,PRK,cytopathic effect,300 µg/mL
Oc1ccc([C@H]2c3c(O)cc(O)cc3[C@H]3c4c(cc(O)c5c4[C@H]2[C@@H](c2ccc(O)cc2)[C@@H]5c2cc(O)cc(O)c2)O[C@@H]3c2ccc(O)cc2)cc1,EC50,-,VERO,MTT,3.2 µM
O=c1[nH]c(=O)n([C@@H]2O[C@H](O)[C@@H](O)[C@@H]2O)cc1C#Cc1ccc2c3cccc4cccc(c5cccc1c52)c43,EC50,186,VERO,-,0.031 µM
O=c1[nH]c(=O)n([C@@H]2O[C@H](CO)[C@@H](O)[C@@H]2O)cc1/C=C/Br,EC50,196,PRK,cytopathic effect,70 µg/mL
O=C(O)P(=O)(O)O,EC50,US,GMK,plaque count,222.3 µM
CCn1nc(CC(=O)N/N=C/c2ccco2)nc1C,MIC,G,-,-,>400 µg/mL
COC(=O)[C@]1(C)CCC[C@]2(C)c3ccc4nc5c(nc4c3CCC12)CCCC5,EC50,-,E6SM,plaque count,>4 µg/mL
Nc1nc(OCC2CC2)c2ncn(/C=C3/C[C@@H]3CO)c2n1,EC50,-,HFF,cytopathic effect,172 µM
COC(=O)[C@]1(C)CCC[C@]2(C)c3ccc4[nH]c(C)nc4c3CCC12,EC50,-,E6SM,plaque count,>4 µg/mL
CC(C)c1ccc(O)c(O)c(=O)c1,EC50,Clinical isolate,HFF,plaque count,0.38 µM
CCn1nc(CC(=O)NN=C(C)C)nc1C,MIC,G,-,-,>400 µg/mL
Nc1nc2c(ncn2COC2COP(=O)(O)OC2)c(=O)[nH]1,EC50,-,HEF,cytopathic effect,20 µM
[O-][n+]1onc2ncnc(N3CC[N+]4(CC3)CC[N+]3(CCN(c5ncnc6no[n+]([O-])c56)CC3)CC4)c21,EC50,P,GMK,plaque count,10.2 µM
Nc1nc(N)c2ncn(C[C@@H](CF)OCP(=O)(O)O)c2n1,EC50,G 196 LYONS,E6SM,cytopathic effect,≥600 µM
Cc1cn([C@@H]2O[C@H](CO)[C@@H](O)[C@@H]2O)c(=O)[nH]c1=O,EC50,HG-52,HELF,cytopathic effect,0.66 µg/mL
CCSC1NN=C(Cc2nc(C)n(C)n2)N1c1ccccc1,MIC,G,-,-,80 µg/mL
Oc1ccc([C@@H]2c3c(O)cc(O)cc3[C@@H]3c4c(cc(O)cc4[C@H]2[C@H]2c4cc(O)cc5c4[C@@H](c4cc(O)cc(O)c4[C@H]2c2ccc(O)cc2)[C@@H](c2ccc(O)cc2)O5)O[C@@H]3c2ccc(O)cc2)cc1,EC50,-,VERO,MTT,3.4 µM
Nc1ncnc2c1ncn2C[C@H](CF)OCP(=O)(O)O,EC50,G 196 LYONS,E6SM,cytopathic effect,>1200 µM
Cc1nc(Cc2n[nH]c(=S)n2-c2ccccc2)nn1C,MIC,G,-,-,400 µg/mL
CC(=O)N[C@H]1C[C@@H](n2cnc3c(N)ncnc32)[C@H](O)[C@@H]1O,EC50,-,HFF,-,>100 µg/mL
Nc1ncc2ncn(C[C@@H](CF)OCP(=O)(O)O)c2n1,EC50,G 196 LYONS,E6SM,cytopathic effect,>600 µM
CCCCCCCC/C=C\CCCCCCCC(=O)OC(COC(=O)CCCCCCCCCCCCCCCCCCCCC)CO[C@@H]1O[C@H](CO)[C@@H](O)[C@H](O)[C@H]1O,EC50,186,VERO,plaque count,>50 µg/mL
Cn1c(=O)c(C(N)=O)c(O)c2ccc(-c3ccncc3)cc21,EC50,Curtis,VERO,plaque count,2.1 µg/mL
Cc1nc(CC(=O)NN)nn1C,MIC,G,-,-,>400 µg/mL
CCCSc1nc(N)nc2c1ncn2/C=C1/C[C@@H]1CO,EC50,-,HFF,cytopathic effect,66 µM
NC1=CC(N)=NS(=O)(=O)N1COCCO,EC50,LYONS,E6SM,-,>400 µg/mL
C#CCNc1nc(N)nc2c1ncn2/C=C1/C[C@@H]1CO,EC50,-,HFF,cytopathic effect,>370 µM
CC(N)c1cn([C@H]2C[C@H](O)[C@@H](CO)O2)c(=O)[nH]c1=O,EC50,MS,HFF,cytopathic effect,1 µM
C[C@@H](Cn1cnc2c(N)nc(N)nc21)OCP(=O)(O)O,EC50,G 196 LYONS,E6SM,cytopathic effect,232 µM
CC(C)NS(=O)(=O)OC[C@H]1O[C@@H](n2ccc(=O)[nH]c2=O)C2OC(C)(C)OC21,EC50,-,VERO,virus yield,25 µg/mL
COC(=O)[C@]1(C)CCC[C@]2(C)c3cc(Br)c4[nH]ccc4c3CCC12,EC50,-,E6SM,plaque count,>4 µg/mL
NCC(CO)OCn1cnc2c(=O)[nH]c(N)nc21,EC50,G,VERO,plaque count,100 µM
Cc1cc(C)c(OC(=O)c2ccc(Cl)cc2)c(=O)c(C)c1,EC50,Clinical isolate,HFF,plaque count,0.84 µM
Nc1ncc2ncn(C[C@@H](CO)OCP(=O)(O)O)c2n1,EC50,G 196 LYONS,E6SM,cytopathic effect,23 µM
Nc1nc(=O)n([C@H]2C[C@H](O)[C@@H](CO)O2)cc1F,EC50,-,HeLa,virus yield,<5 µM
C/C(O)=C1\C(=N)N(COCCO)S(=O)(=O)N=C1N,EC50,G,E6SM,-,>400 µg/mL
Nc1ncnc2c1ncn2[C@H]1C[C@]12C[C@@H]2CO,EC50,-,VERO,plaque count,>50 µM
CCCOc1nc(N)nc2c1ncn2/C=C1/C[C@@H]1CO,EC50,-,HFF,cytopathic effect,63 µM
Nc1ccn([C@H]2C[C@H](O)[C@@H](CO)O2)c(=O)n1,EC50,-,HeLa,virus yield,<5 µM
CC/C=C/C/C=C/C/C=C/CCCCCCCC(=O)OCC(CO[C@@H]1O[C@H](CO)[C@H](O)[C@H](O)[C@H]1O)OC(=O)CCCCCCC/C=C\C/C=C\CCCCC,EC50,186,VERO,plaque count,<50 µg/mL
Cc1ccc(Cc2c(O)cc(O)cc2[C@@H]2c3c(cc(O)cc3[C@H](C)[C@@H](c3ccc(O)cc3)c3c(O)cc(O)cc3C[C@H](Oc3cccc(O)c3)c3ccc(O)cc3)O[C@H]2c2ccc(O)cc2)cc1.O,EC50,-,VERO,MTT,3.2 µM
CCC(Sc1ncnc2c1cnn2COCCO)C(N)=O,EC50,G,E6SM,cytopathic effect,>400 µg/mL
Nc1nc(NC2CC2)c2ncn(/C=C3/C[C@@H]3CO)c2n1,EC50,-,HFF,cytopathic effect,>73 µM
NC(=O)c1cn(-c2ccc(Br)cc2)c2cc(-c3ccncc3)ccc2c1=O,EC50,Curtis,VERO,plaque count,0.4 µg/mL
CC(=O)[C@H]1CCC2C3CC4CC[C@@]5(CCC(=O)C=C45)C3CC[C@@]21C,EC50,G,BHK-21,cytopathic effect,20.6 µM
O=C(O)C(O)c1ccccc1,EC50,Strain 333,CaSki Cells,plaque count,0.0058 µg/mL
CCNS(=O)(=O)OC[C@H]1O[C@@H](n2ccc(=O)[nH]c2=O)C(O)C1O,EC50,-,VERO,virus yield,25 µg/mL
Cc1cn([C@H]2C[C@H](O)[C@@H](CO)O2)c(=O)nc1N,EC90,-,HeLa,virus yield,125 µM
Nc1ncnc2c1ncn2C[C@@H](CF)OCP(=O)(O)O,EC50,G 196 LYONS,E6SM,cytopathic effect,≥656 µM
CC(=O)OCCOCN1C=CC(=O)NS1(=O)=O,EC50,LYONS,E6SM,-,>400 µg/mL
Nc1nc2c(ncn2COCCO)c(=O)[nH]1,EC50,V68697 (acyclovir-resistant),HFF,cytopathic effect,>50 µg/mL
O=c1[nH]c(=O)n([C@H]2C[C@H](O)[C@@H](CO)O2)cc1/C=C/Br,EC50,196,PRK,cytopathic effect,70 µg/mL
CC(=O)OCCOCN1C=CC(=O)N(COCCOC(C)=O)S1(=O)=O,EC50,LYONS,E6SM,-,>400 µg/mL
C=C(C)[C@@H]1CCc2c(O)c(O)c(=O)cc(C)c2C1,EC50,Clinical isolate,VERO,plaque count,0.58 µM
CC1=C[C@H](n2ccc(N)nc2=O)C[C@]1(C)CO,EC50,-,-,-,>100 µg/mL
NC1CSCON2CCc3c([nH]c4ccccc34)[C@H]12,EC50,G,PRK,cytopathic effect,0.2 µg/mL
CCCCCCCCCCCCCCCCCCCCCC(=O)OC(COC(=O)CCCCCCCCCCCCCCCCC)CO[C@@H]1O[C@H](CO)[C@@H](O)[C@H](O)[C@H]1O,EC50,186,VERO,plaque count,>50 µg/mL
O=C(OC1COC(=O)c2cc(O)c(O)c(O)c2-c2c(cc(O)c(O)c2O)C(=O)OC1C1OC(=O)c2cc(O)c(O)c(O)c2-c2c(O)c(O)c(O)c3c2C(=O)OC1C3O)c1cc(O)c(O)c(O)c1,EC50,-,VERO,plaque count,1.5 µM
CCCCCCCCCC(=O)OCC(CO[C@@H]1O[C@H](CO)[C@@H](O)[C@H](O)[C@H]1O)OC(=O)CCCCCCCCC,EC50,186,VERO,plaque count,>50 µg/mL
Nc1ccn([C@@H]2O[C@H](CO)[C@@H](O)[C@@H]2O)c(=O)n1,MIC,E304,-,-,4.4 µg/mL
NC[C@H]1C[C@@H](n2cnc3c(N)ncnc32)[C@H](O)[C@@H]1O,EC50,-,HFF,cytopathic effect,27.3 µg/mL
COC(=O)Nc1nc2c3c(ccc2[nH]1)[C@@]1(C)CCC[C@@](C)(C(=O)OC)C1CC3,EC50,-,E6SM,plaque count,>4 µg/mL
CC1=C[C@H](n2cnc3c(N)ncnc32)CC1(CO)CO,EC50,-,-,-,>100 µg/mL
Oc1ccc([C@@H]2c3c(O)cc(O)cc3[C@H]3c4c(cc(O)cc4[C@@H]2[C@H]2c4cc(O)cc5c4[C@@H](c4cc(O)cc(O)c4[C@@H]2c2ccc(O)cc2)[C@H](c2ccc(O)cc2)O5)O[C@@H]3c2ccc(O)cc2)cc1,EC50,-,VERO,MTT,3.3 µM
CCCCCCCC/C=C\CCCCCCCC(=O)OCC(CO[C@@H]1O[C@H](CO)[C@@H](O)[C@H](O)[C@H]1O)OC(=O)CCCCCCC/C=C\CCCCCCCC,EC50,186,VERO,plaque count,>50 µg/mL
CC1=C[C@H](n2ccc(=O)[nH]c2=O)CC1(CO)CO,EC50,-,-,-,>100 µg/mL
NC(=O)CSc1ncnc2c1cnn2COCC(O)CO,EC50,G,E6SM,cytopathic effect,>400 µg/mL
COc1cc2c(cc1OC)[C@@H]1C(N)CSCON1CC2,EC50,G,E6SM,cytopathic effect,0.1 µg/mL
Oc1ccc([C@@H]2c3c(O)cc(O)cc3[C@H]3c4c(cc(O)cc4[C@H]2[C@@H]2c4cc(O)cc5c4[C@@H](c4cc(O)cc(O)c4[C@H]2c2ccc(O)cc2)[C@H](c2ccc(O)cc2)O5)O[C@@H]3c2ccc(O)cc2)cc1,EC50,-,VERO,MTT,3.7 µM
COC(C)c1cn([C@H]2C[C@H](O)[C@@H](CO)O2)c(=O)[nH]c1=O,EC50,MS,HFF,cytopathic effect,1.5 µM

For reference, 9 entries again:

smiles | measure | strain | cells | method | value
C=C(C)[C@@H]1CCc2c(O)c(O)c(=O)cc(C)c2C1 | EC50 | Clinical isolate | VERO | plaque count | 0.58 µM
CCCCCCCC/C=C\CCCCCCCC(=O)OCC(CO[C@@H]1O[C@H](CO)[C@@H](O)[C@H](O)[C@H]1O)OC(=O)CCCCCCC/C=C\CCCCCCCC | EC50 | 186 | VERO | plaque count | >50 µg/mL
Nc1nc(=O)n([C@H]2C[C@H](O)[C@@H](CO)O2)cc1F | EC50 | - | HeLa | virus yield | <5 µM
Oc1ccc([C@@H]2c3c(O)cc(O)cc3[C@H]3c4c(cc(O)cc4[C@H]2[C@@H]2c4cc(O)cc5c4[C@@H](c4cc(O)cc(O)c4[C@H]2c2ccc(O)cc2)[C@H](c2ccc(O)cc2)O5)O[C@@H]3c2ccc(O)cc2)cc1 | EC50 | - | VERO | MTT | 3.7 µM
CCC(Sc1ncnc2c1cnn2COCCO)C(N)=O | EC50 | G | E6SM | cytopathic effect | >400 µg/mL
Nc1ncnc2c1ncn2C[C@@H](CF)OCP(=O)(O)O | EC50 | G 196 LYONS | E6SM | cytopathic effect | ≥656 µM
C/C(O)=C1\C(=N)N(COCCO)S(=O)(=O)N=C1N | EC50 | G | E6SM | - | >400 µg/mL
Nc1ncnc2c1ncn2C[C@H](CF)OCP(=O)(O)O | EC50 | G 196 LYONS | E6SM | cytopathic effect | >1200 µM
CC(=O)OCCOCN1C=CC(=O)N(COCCOC(C)=O)S1(=O)=O | EC50 | LYONS | E6SM | - | >400 µg/mL